## Potato spindle tuber viroid, loop 15: variant abundance in plants

The pool varies loop 15 of the PSTVd intermediate strain in the pattern GGAAACCGNNNNNNC; wild type is GGAAACCGCUACUAC (upper and lower strand joined, each 5' to 3', the first 7 letters being the upper strand, closing pairs included).

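A pool of all variants was put on leaves of three Nicotiana benthamiana plants. Samples came from the inoculated region at 5 days, the leaf margin at 10 and upper systemic leaves at 12.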

Values are reads per thousand in the sample; higher means more abundant, 0 means not found.
Each site shows the three plants.
"Pool" is the share in the plasmid pool used as inoculum, on the same scale.
The inoculated region was read from the minus strand, the other sites from the plus strand.
For reference, wild type rose from 33.9 per thousand in the pool to 202, 200, 159 (inoculated region), 724, 746, 710 (leaf margin) and 856, 883, 880 (systemic leaves).
Samples held 43,870 to 66,106 reads, so the smallest values rest on one or two reads.
Sequences that differ at fixed positions probably stem from PCR or sequencing errors, and defective variants can be carried along by functional ones.

| sequence | pool | inoculated region | leaf margin | systemic leaves |
|---|---|---|---|---|
| GGAAACCGAGGCCAC | 0.208 | 0.0655 0.0482 0.114 | 0 0 0.0200 | 0 0 0 |
| GGAAACCGUUGCACC | 0.144 | 0.0819 0.0643 0.0952 | 0.0323 0.0223 0.0401 | 0.0322 0 0 |
| GGAAACCGUAAUCCC | 0.208 | 0.0328 0.0321 0.0762 | 0.0162 0 0 | 0 0 0 |
| GGAAACCGCCUCUAC | 0.288 | 0.377 0.241 0.343 | 0.0970 0.0445 0.120 | 0.0644 0 0 |
| GGAAACCGGACCGAC | 0.176 | 0.229 0.0803 0.0952 | 0.0323 0.0223 0 | 0.0161 0 0 |
| GGAAACCGCGAAUCC | 0.272 | 0.262 0.321 0.438 | 0.0485 0.111 0.140 | 0.0483 0 0 |
| GGAAACCGUUUCCCC | 0.144 | 0.0655 0.0803 0.0381 | 0 0 0 | 0 0 0 |
| GGAAACCGGUGCUCC | 0.352 | 0.0328 0.0482 0.0571 | 0.0162 0.0445 0 | 0 0 0 |
| GGAAACCGCAACGUC | 0.128 | 0.0491 0.0964 0.114 | 0.0323 0 0.0401 | 0.0161 0 0 |
| GGAAACCGUAACUAC | 0.128 | 0.262 0.305 0.305 | 0.0970 0.111 0.140 | 0.0161 0 0.0456 |
| GGAAACCGGGCAGUC | 0.224 | 0.0819 0.0964 0.0952 | 0.0162 0 0 | 0 0 0 |
| GGAAACCGACCAUGC | 0.112 | 0.0491 0.112 0.0190 | 0 0.0445 0 | 0.0161 0 0.0228 |
| GGAAACCGAUCAGAC | 0.240 | 0.0819 0.145 0.133 | 0.0162 0 0.0200 | 0 0 0 |
| GGAAACCGGCAUCGC | 0.240 | 0.147 0.0803 0.0952 | 0.0162 0 0 | 0 0 0 |
| GGAAACCGAUCUACC | 0.144 | 0.147 0.193 0.0190 | 0.0162 0 0.0200 | 0.0161 0 0 |
| GGAAACCGUGCUCCC | 0.256 | 0.0983 0.145 0.0762 | 0.0162 0 0.0200 | 0 0 0 |
| GGAAACCGUGUAUGC | 0.256 | 0.164 0.225 0.190 | 0 0 0.0200 | 0.0161 0 0 |
| GGAAACCGCACAAGC | 0.208 | 0.213 0.112 0.228 | 1.05 0 0.0401 | 0 0 0 |
| GGAAACCGCAUCUCC | 0.224 | 0.0655 0.209 0.171 | 0.0162 0 0.0200 | 0 0 0 |
| GGAAACCGGGCUGGC | 0.224 | 0.115 0.145 0.0381 | 0.0323 0 0.0200 | 0 0 0 |
| GGAAACCGGACUCGC | 0.160 | 0.197 0.0161 0.0952 | 0.0162 0.0223 0 | 0 0 0 |
| GGAAACCGGCCUCGC | 0.224 | 0.131 0.112 0.114 | 0 0 0 | 0 0 0 |
| GGAAACCGCUAGGUC | 0.192 | 0.524 0.434 0.628 | 0.162 0.0445 0.180 | 0.113 0.0454 0.0456 |
| GGAAACCGACGAAAC | 0.288 | 0.0819 0.0964 0.0571 | 0.0162 0 0.0401 | 0 0 0 |
| GGAAACCGUGAGUAC | 0.352 | 0.278 0.257 0.324 | 0.178 0.0223 0.140 | 0.113 0 0 |
| GGAAACCGCACGUUC | 0.256 | 0.508 0.450 0.400 | 0.0970 0 0.200 | 0.113 0.0454 0.0228 |
| GGAAACCGUGUGGUC | 0.368 | 0.0819 0.0643 0.0190 | 0 0 0 | 0.0161 0 0 |
| GGAAACCGUUGUUAC | 0.224 | 0.262 0.321 0.343 | 0.0647 0.0891 0.0801 | 0.0161 0.0605 0.182 |
| GGAAACCGCGAUCGC | 0.240 | 0.0164 0.0482 0.0571 | 0.0162 0 0.0200 | 0 0 0 |
| GGAAACCGAACGUCC | 0.240 | 0.0983 0.129 0.0571 | 0.0162 0 0.0401 | 0 0 0 |
| GGAAACCGUCAUACC | 0.320 | 0.115 0.112 0.0952 | 0 0 0 | 0 0 0 |
| GGAAACCGAGUACUC | 0.128 | 0.0819 0.0643 0.133 | 0 0 0 | 0 0 0 |
| GGAAACCGCCAGCAC | 0.144 | 0.409 0.241 0.305 | 0.0808 0.0445 0.140 | 0 0.121 0.114 |
| GGAAACCGCCUAUCC | 0.128 | 0.0491 0.209 0.0571 | 0 0 0.0200 | 0.0161 0 0 |
| GGAAACCGGUGUGGC | 0.208 | 0.0819 0.0964 0.133 | 0.0162 0.0223 0 | 0 0 0 |
| GGAAACCGAUAAUAC | 0.240 | 0.393 0.434 0.438 | 0.0970 0.178 0.120 | 0.0644 0.106 0.160 |

Values reported by Wu et al. 2024 (doi:10.1371/journal.ppat.1012142).